Experimental data from publication PMC7940615 (Scientific Reports, 2021).
Entries after “also recorded” stand apart in the source; their conditions may differ.

Legend:
[1] = target: T1, SARS-CoV-2 3CL^pro (Severe acute respiratory syndrome coronavirus 2, UniProt P0DTD1); experiment: 3CL^pro proteolytic activity assay (FRET peptide substrate); assay type: biochemical
[2] = target: T1, SARS-CoV-2 3CL^pro; experiment: Surface plasmon resonance (SPR) binding to biotinylated 3CL^pro; details: SPR at 10 °C; concentration ranges of up to 100 uM
[3] = target: SARS-CoV-2 PL^pro (Severe acute respiratory syndrome coronavirus 2, UniProt P0DTD1)

What does the source list for `NC(N)=Nc1nc(CSCCC(N)=NS(N)(=O)=O)cs1` [Famotidine]?
inhibition of 3CL^pro activity (in words) [1]: did not inhibit 3CL^pro activity; binding to 3CL^pro by SPR (in words) [2]: No binding was detected; also recorded: not found to interact; inhibition of PL^pro proteolytic activity (in words) [3]: no reduction in PL^pro activity
